Pooled drug test results. Numbers come from NIAID ChemDB, via PubChem.

Shared fields: growth or infection tests; agent: Mycobacterium tuberculosis

An empty or dashed field is not shown. MIC bound: limit read from a one-dose screen. A number after MIC or MFC names an inhibition level or a share of isolates. Inhibition is in % at the dose shown (toxicity tests: loss of growth or viability). ECn: concentration that inhibits the pathogen or its effect by n%. Conditions beyond the fields shown may differ between rows.

smiles | cell line | method | strain or isolate | read-out | tested at | conditions | result
Cc1cc(C(=O)O)ccc1N | - | - | H37Rv | MIC | - | - | >100 µg/mL
CCOC(=O)Nc1cc(Cl)c(N)c(N)n1 | - | - | H37Rv | inhibition | 12.5 µg/mL | - | 0%
NC(N)=NC(N)=Nc1ccccc1-c1ccccc1.O | - | - | H37Rv | MIC | - | - | >100 µg/mL
NC1CCN(c2nc3c(cc2F)c(=O)c(C(=O)O)cn3-c2ccc(F)cc2F)C1 | - | - | ATCC 35830 | MBC | - | - | >8 µg/mL
CCCCC(CC)CN1CN(CC(CC)CCCC)CC(C)(NCCNCCc2ccccc2OC)C1 | - | - | - | MIC | - | - | 12.5 µM
CC(C)(C)CC(C)(C)NCCNCC(c1ccccc1)c1ccccc1 | - | - | - | MIC | - | - | 18.8 µM
CCOC(=O)Nc1cc(NC(c2ccccc2)c2ccccc2)c2ncc(-c3ccc(Cl)cc3)nc2n1 | - | - | H37Rv | EC50 | - | - | >12.5 µg/mL
COc1ccc(/C=C/C(=O)c2c(O)cc(OC)cc2OC)cc1 | - | - | - | EC50 | - | - | >12.5 µg/mL
C[C@H](NCCNCCC(c1ccccc1)c1ccccc1)C1CCCCC1 | - | - | - | MIC | - | - | 6.25 µM
C[C@H]1COc2c(N3CCN(C)CC3)c(F)cc3c(=O)c(C(=O)O)cn1c23 | - | - | MDR | MIC50 | - | - | 2 µg/mL
CC(=O)NC1C(O)OC(CO)C(OC2OC(CO)C(O)C(O)C2NC(=O)NCCCCCCNC(=O)n2cc(F)c(=O)[nH]c2=O)C1O | - | BACTEC | H37Rv | inhibition | 12.5 µg/mL | - | 97%
CO[C@H]1/C=C/O[C@@]2(C)Oc3c(C)c(O)c4c(=O)c(c5oc6cc(N7CCN(C(C)C)CC7)cc(=O)c6nc5c4c3=C2O)NC(=O)/C(C)=C\C=C\[C@H](C)[C@H](O)[C@@H](C)[C@@H](O)[C@@H](C)[C@H](OC(C)=O)[C@@H]1C | - | - | 27 (rifampin-resistant) | MBC | - | - | 0.2 µg/mL
CCOc1ccccc1CNCCNC1Cc2ccccc2C1 | - | - | - | MIC | - | - | 50 µM
CCCCCCCCCCCCCCCCCCNCCN[C@H]1C[C@H]2CC[C@]1(C)C2(C)C | - | - | - | MIC | - | - | 25 µM
c1ccc(C(NCCNC2CCCCCCC2)c2ccccc2)cc1 | - | - | - | MIC | - | - | 12.5 µM
O[C@H](c1cc(C(F)(F)F)nc2c(C(F)(F)F)cccc12)[C@H]1CCCCN1 | - | resazurin | H37Rv | MIC bound | - | - | >6.25 µg/mL
Cc1cc(=O)oc2c(O)c(O)ccc12 | - | - | H37Rv | MIC | - | - | 100 µg/mL
CN[C@@H]1[C@H](O[C@H]2[C@H](O[C@H]3[C@H](O)[C@@H](O)[C@H](N=C(N)N)[C@@H](O)[C@@H]3N=C(N)N)O[C@@H](C)[C@]2(O)C=O)O[C@@H](CO)[C@H](O)[C@H]1O | - | - | TN2508 (001/16) | MIC | - | - | >2 µg/mL
COc1ccc(N)cc1 | - | - | H37Rv | MIC | - | - | 25 µg/mL
O=C(CCCCCCCCC(=O)N/N=C/c1ccccc1O)N/N=C/c1ccccc1O | - | BACTEC | H37Rv | MIC | - | - | ≥12.5 µg/mL
COc1cc(OC)c2c(c1)OC(c1cc(OC)c(OC)c(OC)c1)C(Br)(Br)C2=O | - | - | H37Rv | EC50 | - | - | >12.5 µg/mL
C=C(C)C1CC=C(C)/C(=N/NC(=O)c2cccnc2)C1 | - | - | CS-R | MIC | - | - | <0.1 µg/mL
O=C(O)c1ccc(Cl)cc1C(=O)O | - | - | H37Rv | MIC | - | - | >100 µg/mL
CSc1ccc(NC(=O)Nc2c(C)n(C)n(-c3ccccc3)c2=O)cc1 | - | BACTEC | H37Rv | MIC | - | - | ≥12.8 µg/mL
O=C(N/N=C/c1ccccc1F)c1ccncc1 | - | - | Ethambutol-resistant | MIC | - | - | 0.05 µg/mL
c1cc(NCCNC23CC4CC(CC(C4)C2)C3)c2cccnc2c1 | - | - | - | MIC | - | - | 6.25 µM
COc1ccccc1CCNCCNCc1ccccc1Sc1ccccc1CO | - | - | - | MIC | - | - | 50 µM
CCCCCNCCNC1(C)CN(CC(CC)CCCC)CN(CC(CC)CCCC)C1 | - | - | - | MIC | - | - | 50 µM
O=NNc1cnc(Br)cn1 | - | BACTEC | H37Rv | MIC bound | - | - | >12.5 µg/mL
CN(C)C1CCc2ccc3ccccc3c2C1O.Cl | - | - | H37Rv | MIC | - | - | >100 µg/mL
CCOC(=O)C12OC(=O)CC(NC1C(=O)OC(C)(C)C)C2O | - | BACTEC | H37Rv | MIC bound | - | - | >12.5 µg/mL
CCOC(=O)Nc1cc(N)c2c(c1)N[C@@H](C)C(c1ccccc1)=N2 | - | - | H37Rv | inhibition | 12.5 µg/mL | - | 43%
CN1CNC(=O)NC1 | - | - | H37Rv | MIC | - | - | >100 µg/mL
CSC(=S)NCc1nnn(Cc2ccccc2)c1N | - | BACTEC | H37Rv | inhibition | 128 µg/mL | - | 91%
COc1ccc(/C=C/C(=O)c2cccc(F)c2O)cc1 | - | - | - | EC50 | - | - | >12.5 µg/mL
C/C(=N\NC(=O)c1ccncc1)c1ccccc1F | Macrophages | colony count | Erdman | EC90 | - | inside macrophages | 0.081 µg/mL
CC1(C)[C@H]2CC[C@@H](CNCCNCCN3CCOCC3)[C@@H]1C2 | - | - | - | MIC | - | - | 50 µM
CCN(CC)C(=O)c1cccc([N+](=O)[O-])c1C(=O)N(CC)CC | - | - | H37Rv | MIC | - | - | >100 µg/mL
COc1cc(CCNCCNC[C@]2(C)CCC[C@]3(C)c4ccc(C(C)C)cc4CC[C@@H]23)ccc1O | - | - | - | MIC | - | - | 12.5 µM
c1ccc(N=C(c2ccccc2)c2ccccc2)cc1 | - | - | H37Rv | MIC | - | - | 100 µg/mL
CCOC(=O)Nc1cc2c(cn1)N=C(CN(C)c1ccc(OC)cc1)CN2 | - | - | H37Rv | inhibition | 12.5 µg/mL | - | 20%
CC[C@H]1OC(=O)[C@H](C)[C@@H](O[C@H]2C[C@@](C)(OC)[C@@H](O)[C@H](C)O2)[C@H](C)[C@@H](O[C@@H]2O[C@H](C)C[C@H](N(C)C)[C@H]2O)[C@](C)(O)C[C@@H](C)C(=O)[C@H](C)[C@@H](O)[C@]1(C)O | - | - | ATCC 35828 | MIC | - | - | >8 µg/mL
N#CCC(=O)N/N=C(\CC1(O)C(=O)Nc2c(Cl)cc(Cl)cc21)c1ccccc1 | - | BACTEC | H37Rv | inhibition | 12.5 µg/mL | - | -10%
CCCCCc1cc(OC)c2ccccc2n1 | - | - | MT7 | MIC | - | - | 6.25 µg/mL
CC[C@H]1OC(=O)[C@H](C)[C@@H](O[C@H]2C[C@@](C)(OC)[C@@H](O)[C@H](C)O2)[C@H](C)[C@@H](O[C@@H]2O[C@H](C)C[C@H](N(C)C)[C@H]2O)[C@](C)(OC)C[C@@H](C)C(=O)[C@H](C)[C@@H](O)[C@]1(C)O | - | - | ATCC 35827 | MBC | - | - | >8 µg/mL
Cc1ccc2c3c(nsc13)-c1ccccc1C2=O | - | BACTEC | H37Rv | MIC bound | - | - | ≤12.5 µg/mL
O=C1C(c2ccccc2)C(=O)C2C3C=CC(C3)C12 | - | - | H37Rv | MIC | - | - | 100 µg/mL
O=C(N/N=C/c1cccc(F)c1)c1ccncc1 | - | - | Isoniazid-resistant | MBC | - | - | >1.6 µg/mL
Cc1cc(N=NC(N)=O)c2ccccc2c1O | - | BACTEC | H37Rv | MIC bound | - | - | >12.5 µg/mL
Clc1ccc(CCNCCNCCCc2ccccc2)c(Cl)c1 | - | - | - | MIC | - | - | 25 µM
CN(C)c1ccc(P([O-])O)cc1.[Na+] | - | - | H37Rv | MIC | - | - | >100 µg/mL
CCCCCCCCCCCNCCNCCCCC | - | - | - | MIC | - | - | 50 µM
CCOC(=O)NC([N-][n+]1ccccc1)c1ccccc1 | - | BACTEC | H37Rv | inhibition | 12.5 µg/mL | - | 0%
CCOC(=O)N(c1ccc(S(N)(=O)=O)cc1)c1cc(Cl)c([N+](=O)[O-])c(N)n1 | - | - | H37Rv | EC50 | - | - | >12.5 µg/mL
O=C1C2=C(Nc3cc(Cl)ccc3N2)OC1c1c[nH]c2ccc(COc3ccccc3)cc12 | - | BACTEC | H37Rv | MIC bound | - | - | >12.5 µg/mL
CC(NNC(=O)c1ccncc1)c1cccc(C(F)(F)F)c1 | - | - | H37Rv (ethambutol-resistant) | MIC | - | - | ≤0.49 µg/mL
CCCCCCCCCCCNCCNCc1ccc(OC)cc1OC | - | - | - | MIC | - | - | 25 µM
CO[C@H]1/C=C/O[C@@]2(C)Oc3c(C)c(O)c4c(O)c(c(/C=N/N5CCN(C6CCCC6)CC5)c(O)c4c3C2=O)NC(=O)/C(C)=C\C=C\[C@H](C)[C@H](O)[C@@H](C)[C@@H](O)[C@@H](C)[C@H](O)[C@@H]1C | - | - | Isolate 910328 rifampicin-resistant | MIC | - | - | >32 µg/mL
O=[N+]([O-])c1cccc2nc(Cl)ccc12 | - | - | H37Rv | MIC | - | - | >100 µg/mL
CO[C@H]1/C=C/O[C@@]2(C)Oc3c(C)c(O)c4c(O)c(c5c(c4c3C2=O)NC2(CCN(CC(C)C)CC2)N=5)=NC(=O)/C(C)=C\C=C\[C@H](C)[C@H](O)[C@@H](C)[C@@H](O)[C@@H](C)[C@H](OC(C)=O)[C@@H]1C | - | - | 2230 (rifampin-resistant) | MIC | - | - | 0.2 µg/mL
CC1=C(c2ccco2)C(c2ccco2)OC1=O | - | BACTEC | H37Rv | MIC bound | - | - | >12.5 µg/mL
Oc1ccc2nc3ccccc3nc2c1 | - | - | H37Rv | MIC | - | - | >6.25 µg/mL
NNC(=O)[C@H](Cc1cnc[nH]1)NC(=O)OCc1ccccc1 | - | BACTEC | H37Rv | MIC | - | - | ≥12.5 µg/mL
CCCCCCCCCCCCCCCCCCNCCN[C@H]1C[C@H]2CC[C@]1(C)C2(C)C | - | - | - | MIC | - | - | 25 µM
O=C(OC[C@H]1O[C@@H](OC(=O)c2cc(O)c(O)c(OC(=O)c3cc(O)c(O)c(O)c3)c2)[C@H](OC(=O)c2cc(O)c(O)c(OC(=O)c3cc(O)c(O)c(O)c3)c2)[C@@H](OC(=O)c2cc(O)c(O)c(OC(=O)c3cc(O)c(O)c(O)c3)c2)[C@@H]1OC(=O)c1cc(O)c(O)c(OC(=O)c2cc(O)c(O)c(O)c2)c1)c1cc(O)c(O)c(OC(=O)c2cc(O)c(O)c(O)c2)c1 | - | - | H37Rv | MIC | - | - | >100 µg/mL
Clc1cc2ns[s+]c2cc1Cl.[Cl-] | - | BACTEC | H37Rv | MIC bound | - | - | <6.25 µg/mL
COc1ccc(C2CC(=O)c3c(OC)cc(OC)c(I)c3O2)cc1 | - | - | - | inhibition | 12.5 µg/mL | - | 0%
C[C@H]1[C@@H](c2ccccc2)OC(=O)N1C(=O)CNC(=O)OCc1ccccc1 | - | BACTEC | H37Rv | MIC bound | - | - | >12.5 µg/mL
CC1(C)[C@H]2CC[C@@H](CNCCNCCc3ccccc3F)[C@@H]1C2 | - | - | - | MIC | - | - | 50 µM
CCNC(=S)N/N=C(\c1ccccc1)c1ccccn1 | - | BACTEC | H37Rv | inhibition | 12.5 µg/mL | - | 88%
C[C@H]1C[C@H](N)CN1c1cc2c(cc1F)c(=O)c(C(=O)O)cn2-c1ccc(F)cc1F | - | - | ATCC 35827 | MIC | - | - | 2 µg/mL
CC(C)c1cc(C(C)C)c(/C=N/NC(N)=O)c(C(C)C)c1 | - | - | H37Rv | MIC | - | - | 50 µg/mL
NC(=O)c1cnccn1 | - | - | Isolate 9579 monodrug-resistant | MIC | - | - | >300 µg/mL
Cc1c(N)cccc1[N+](=O)[O-] | - | - | H37Rv | MIC | - | - | >100 µg/mL
C/C(=N\NC(=O)c1ccncc1)c1ccc(F)cc1 | - | - | Erdman | MIC | - | - | 0.2 µg/mL
O=C(CC(=O)c1ccc(Cl)cc1)c1ccc(Cl)cc1 | - | - | H37Rv | MIC | - | - | >100 µg/mL
CC(NNC(=O)c1ccncc1)c1ccc(Cl)c(Cl)c1 | - | - | Isoniazid-resistant | MBC | - | - | >50 µg/mL
COc1cc(C(=O)Nc2ccc(N(C)C)cc2)cc(OC)c1OC | - | resazurin | H37Rv | inhibition | 6.25 µg/mL | - | -10%
CCc1ccc(OCCO)c(Cl)c1 | - | - | H37Rv | MIC | - | - | >100 µg/mL
O=C1C(Cl)=CC(=NCl)C=C1Cl | - | BACTEC | H37Rv | MIC bound | - | - | >12.5 µg/mL
O=C1c2cccc(O)c2C(=O)c2c(O)cccc21 | - | - | H37Rv | MIC | - | - | 50 µg/mL
COc1ccc(CCC2CCc3ccccc3N2C)cc1OC | - | - | MT5 | MIC | - | - | 161 µg/mL
CN(C)CCC(=O)c1ccc(Br)cc1 | - | - | H37Rv | MIC | - | - | 25 µg/mL
CCCCCCCCCCCNCCNCCc1ccc(O)c(OC)c1 | - | - | - | MIC | - | - | 12.5 µM
CO[C@H]1/C=C/O[C@@]2(C)Oc3c(C)c(O)c4c(=O)c(c5oc6cc(N7CCN(CC(C)C)CC7)cc(=O)c6nc5c4c3=C2O)NC(=O)/C(C)=C\C=C\[C@H](C)[C@H](O)[C@@H](C)[C@@H](O)[C@@H](C)[C@H](OC(C)=O)[C@@H]1C | - | - | TN805 | MIC | - | - | >32 µg/mL

Repeating the final 6 entries:

O=C1C(Cl)=CC(=NCl)C=C1Cl ; method: BACTEC ; strain or isolate: H37Rv ; read-out: MIC bound ; result: >12.5 µg/mL
O=C1c2cccc(O)c2C(=O)c2c(O)cccc21 ; strain or isolate: H37Rv ; read-out: MIC ; result: 50 µg/mL
COc1ccc(CCC2CCc3ccccc3N2C)cc1OC ; strain or isolate: MT5 ; read-out: MIC ; result: 161 µg/mL
CN(C)CCC(=O)c1ccc(Br)cc1 ; strain or isolate: H37Rv ; read-out: MIC ; result: 25 µg/mL
CCCCCCCCCCCNCCNCCc1ccc(O)c(OC)c1 ; read-out: MIC ; result: 12.5 µM
CO[C@H]1/C=C/O[C@@]2(C)Oc3c(C)c(O)c4c(=O)c(c5oc6cc(N7CCN(CC(C)C)CC7)cc(=O)c6nc5c4c3=C2O)NC(=O)/C(C)=C\C=C\[C@H](C)[C@H](O)[C@@H](C)[C@@H](O)[C@@H](C)[C@H](OC(C)=O)[C@@H]1C ; strain or isolate: TN805 ; read-out: MIC ; result: >32 µg/mL